## PSTVd stem 3 mutant pool in Nicotiana benthamiana

Values reported by Wu et al. 2024 (doi:10.1371/journal.ppat.1012142).

Region: stem 3 of PSTVd (intermediate strain), upper and lower strand joined, each 5' to 3', the first 8 letters being the upper strand. Wild type: GUGGUUCCGGAACCGC. Varied positions (N): GUGGUUCCGNANNCNN.

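Three N. benthamiana plants were inoculated with the whole mutant pool. Samples came from the inoculated region at 5 days, the leaf margin at 10 and upper systemic leaves at 12.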

Values are reads per thousand in the sample; higher means more abundant, 0 means not found. Each value is the mean of three plants. "Pool" is the share in the plasmid pool used as inoculum, on the same scale. The inoculated region was read from the minus strand, the other sites from the plus strand. For reference, wild type rose from 17.3 per thousand in the pool to 330, 345, 235 (inoculated region), 794, 766, 816 (leaf margin) and 830, 792, 869 (systemic leaves). Sequences that differ at fixed positions probably stem from PCR or sequencing errors, and defective variants can be carried along by functional ones. Samples held 27,691 to 54,225 reads, so the smallest values rest on one or two reads.

GUGGUUCCGAAAGCAA (pool 0.646) read inoculated region 0.799; leaf margin 0.108; systemic leaves 0. For GUGGUUCCGGAUCCCA (pool 0.739) the result was inoculated region 0.304; leaf margin 0.0120; systemic leaves 0. GUGGUUCCGAAGACAG (pool 1.06) gave inoculated region 1.28; leaf margin 1.70; systemic leaves 2.19. With GUGGUUCCGAAGACGU (pool 0.831) the assay gave inoculated region 0.896; leaf margin 0.469; systemic leaves 0. GUGGUUCCGUAAGCCU (pool 1.85) gave inoculated region 0.717; leaf margin 0; systemic leaves 0.0578.

With GUGGUUCCGUAGACAG (pool 0.831) the assay gave inoculated region 0.833; leaf margin 0; systemic leaves 0. For GUGGUUCCGUAUCCCA (pool 0.877) the result was inoculated region 0.321; leaf margin 0.0226; systemic leaves 0. With GUGGUUCCGCAUGCUU (pool 0.631) the assay gave inoculated region 0.278; leaf margin 0.0212; systemic leaves 0. For GUGGUUCCGAAACCCU (pool 0.846) the result was inoculated region 0.675; leaf margin 0; systemic leaves 0. For GUGGUUCCGUAUGCCA (pool 0.877) the result was inoculated region 0.380; leaf margin 0; systemic leaves 0.

GUGGUUCCGAAGACUC (pool 0.708) read inoculated region 0.832; leaf margin 0.108; systemic leaves 0. With GUGGUUCCGAAAACCG (pool 0.431) the assay gave inoculated region 0.215; leaf margin 0; systemic leaves 0. With GUGGUUCCGGAGGCCA (pool 1.08) the assay gave inoculated region 0.385; leaf margin 0; systemic leaves 0.00811. GUGGUUCCGCAAACCA (pool 0.800) read inoculated region 0.369; leaf margin 0.0212; systemic leaves 0. GUGGCUCCGGAGACAA (pool 0.0154) read inoculated region 0; leaf margin 0; systemic leaves 0.

With GUGGUUCCGGACACGC (pool 0.785) the assay gave inoculated region 0.294; leaf margin 0; systemic leaves 0. GGGGUUCCGUAAACGA (pool 0.0154) gave inoculated region 0; leaf margin 0; systemic leaves 0. For GUGGUUCCGCAGCCGU (pool 0.831) the result was inoculated region 0.858; leaf margin 0.0226; systemic leaves 0.00615. GUGGUUCCGAAAACAA (pool 0.739) gave inoculated region 0.864; leaf margin 0.120; systemic leaves 0. For GUGGUUCCGAAGACGA (pool 0.908) the result was inoculated region 0.838; leaf margin 0.0200; systemic leaves 0.

For GUGGUUCCGUAGGCGC (pool 0.877) the result was inoculated region 0.368; leaf margin 0.0106; systemic leaves 0. GUGGUUCCGAACUCAC (pool 0.893) gave inoculated region 0.846; leaf margin 0.407; systemic leaves 0. GUGGGUCCGGAUCCAA (pool 0.0154) gave inoculated region 0; leaf margin 0; systemic leaves 0. GUGGUUCCGGAUUCAU (pool 1.00) gave inoculated region 0.665; leaf margin 0.981; systemic leaves 1.08. For GUGGUUCCGAAUACCC (pool 0.754) the result was inoculated region 0.294; leaf margin 0.0120; systemic leaves 0.

For GUGGUUCCGCACGCGU (pool 0.785) the result was inoculated region 0.335; leaf margin 0.0321; systemic leaves 0. With GUGGUUCCGUAGUCUC (pool 1.63) the assay gave inoculated region 0.744; leaf margin 0.00944; systemic leaves 0.0186. GUGGUUCCGGACGCAA (pool 0.769) gave inoculated region 0.310; leaf margin 0.0507; systemic leaves 0.